According to US20070072177A1 (CRUCELL HOLLAND B V, published 2007):

T1: glycoprotein of rabies virus strain CVS-11 (rabies virus strain CVS-11, UniProt O92284 20-524)
T1 sequence: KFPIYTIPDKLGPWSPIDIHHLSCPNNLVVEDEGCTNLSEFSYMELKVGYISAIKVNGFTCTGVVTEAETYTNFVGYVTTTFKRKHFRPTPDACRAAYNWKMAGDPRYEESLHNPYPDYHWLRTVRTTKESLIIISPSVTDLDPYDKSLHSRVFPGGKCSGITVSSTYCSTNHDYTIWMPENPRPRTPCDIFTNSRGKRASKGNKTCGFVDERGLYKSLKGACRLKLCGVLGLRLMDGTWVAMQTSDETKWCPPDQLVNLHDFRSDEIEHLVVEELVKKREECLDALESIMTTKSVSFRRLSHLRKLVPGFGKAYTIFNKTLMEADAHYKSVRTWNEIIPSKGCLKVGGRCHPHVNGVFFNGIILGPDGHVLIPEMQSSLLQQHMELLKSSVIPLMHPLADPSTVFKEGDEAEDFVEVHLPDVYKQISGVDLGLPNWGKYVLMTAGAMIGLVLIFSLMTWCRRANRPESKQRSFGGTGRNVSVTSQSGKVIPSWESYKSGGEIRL

T2: rabies virus glycoprotein (G protein) of strain CVS-11 (rabies virus strain CVS-11, UniProt O92284 20-524)
T2 sequence: T1 sequence

B1: SC04-140 (scFv)
scFv: AMAQMQLVQSGGGVVQPGRSLRLSCAASGFTFSSYGMHWVRQAPGKGLEWVAVILYDGSNKYYADSVKGRFTISRDNSKNALYLQMNSLRAEDTAVYYCAKVTNPGDAFDIWGQGTMVTVSSGTGGSGGTGSGTGGSTDIQMTQSPSSLSASVGDRVTITCRASQGISSALAWYQQKPGKAPKLLIYDASSLESGVPSRFSGSGSGTDFTLTISSLQPEDFATYYCQQFNSYPLTFGGGTKVEIKRAAA
B2: SC04-120 (scFv)
scFv: AMAEVQLVQSGGGLVQPGRSLRLSCAASGFTFSTYGMHWVRQAPGKGLEWVATISYDGSIKDYADSEKGRFTISRDNSKNTLYLQMNSLRAEDTAVYYCAKGGKTGEFDYWGQGTLVTVSSGTGGSGGTGSGTGGSTDIQLTQSPSTLSASVGDRVTITCRASQGINSYLAWYQQEPGKAPKLLIYAASTLQSGVPSRFSGSGSGTEFTLTISSLQPEDFATYYCQQLNSYPFTFGPGTKVDIKRAAA
B3: SC04-040 (scFv)
scFv: AMAQVQLVQSGGGVVQPGRSLRLSCAASGFTFGSYGMHWVRQAPGKGLEWVATIFYDGSYKDYADSVKGRFTISRDNSKNTLYLQMNSLRAEDTAVYYCAKGSKVGDFDYWGQGTLVTVSSGTGGSGGTGSGTGGSTQPVLTQPPSVSVAPGQTARISCGGDNIGTNTVQWYQQKPGQAPVLVVYDDSDRPSGIPERFSGSNSGDTATLTISRVEAGDEADYYCQVWDDSSDLVVFGGGTKVTVLGAAA
B4: SC04-126 (scFv)
scFv: AMAQVTLKESGPTLVNPTQTLTLTCTFSGFSLSTGGVGVGWFRQPPGKALEWLARIDWDDDKYYSTSLKTRLTISKDTSKIQVVLTMTNMDPVDTATYYCARMGFTGTYFDYWGQGTLVTVSSGTGGSGGTGSGTGGSTQSVLTQPPSVSVAPGKTARITCGGNNIGSKSVHWYQQKPGQAPVLVIYYDSDRPSGIPERFSGSNSGNTATLTISRVEAGDEADYYCQVWDSSSDHPYVFGTGTKLTVLGAAA
B5: SC04-144 (scFv)
scFv: AMAQVQLQELGGGVVQPGRSLRLSCAASGFTFGSYGMHWVRQAPGKGLEWVATISYDGSIKDYADSEKGRFTISRDNSKNTLYLQMNSLRAEDTAVYYCAKGGKTGEFDYWGQGTLVTVSSGTGGSGGTGSGTGGSTDIQLTQSPSSLSASVGDRVTITCRASQGISSYLAWYQQKPGKGPKLLIYAASTLQSGVPSRFSGSGSGTDFSLTISSLQPEDLATYYCQQYDSYPLTFGGGTKVEIKRAAA
B6: SC04-108 (scFv)
scFv: AMAEVQLVQSGGGLVQPGGSLRLSCAASGFTFSSYGMHWVRQAPGKGLEWVAVILYDGSDKFYADSVKGRFTISRDNSKDTLYLQMNSLRAEDTAVYYCAKFMIVADDAFDIWGQGTMVTVSSGTGGSGGTGSGTGGSTDIQLTQSPSSLSASVGDRVTITCRASQGISSHLVWYQQKPGKAPKSLIYAASSLQSGVPSRFSGSESATDFTLTISSLQPEDFATYYCQQYYSYPITFGQGTRLEIKRAAA
B7: SC04-073 (scFv)
scFv: AMAQVQLVQSGGGVAQPGRSLRLSCAASGFTFSSYGMHWVRQAPGKGLEWVADISYDGSNKYYADSVKGRFTISRDNSKNTLYLQMNSLRAEDTAVYYCAKDGLDLTGTIQPFGYWGQGTLVTVSSGTGGSGGTGSGTGGSTDIQLTQSPSFLSASVGDRVTITCRASHSISSWLAWYQQKPGKAPKLLIYKASSLESGVPSRFSGSGSGTDFTLTISSLQPEDFATYYCLQDYNYPRTFGQGTKLEIKRAAA
B8: SC04-125 (scFv)
scFv: AMAQVQLVESGGGVVQPGRSLRLSCAASGFTFSSYGMHWVRQAPGKGLEWVAVISYDGSDKYYADSVKGRFTISRDNSKNTLYLQMNSLRAEDTAVYYCAKIATAGTGFDYWGQGTLVTVSSGTGGSGGTGSGTGGSTDIQMTQSPSSVSASVGDRVTITCRASQGISSYLAWYQQKPGKAPKLLIYDASSLESGVPSRFSGSGSGTEFTLTISSLQPDDFATYYCQQLNSYPLTFGGGTKVEIKRAAA
B9: SC04-097 (scFv)
scFv: AMAEVQLVQSGGHLVQPGGSLRLSCAASGFTFSSYAMSWVRQAPGKGLEWVSLIIGSGRSTYYADSVKGRFTISRDNSKNTLYLQMNSLRAEDTAVYYCAKTASNLGRGGMDVWGQGTTVTVSSGTGGSGGTGSGTGGSTDIQLTQSPSSLSASVGDRVTITCRASQGISSHLAWYQQKPGKAPKLLIYAASSLQSGVPSRFSGSGSGTEFTLTISSLQPEDFATYYCQQFNSYPITFGQGTRLEIKRAAA
B10: SC04-146 (scFv)
scFv: AMAEVQLVQSGGGVVQPGRSLRLSCAASGFTFSSYGMHWVRQAPGKGLEWVATISYDGSIKDYADSEEGRFTISRDNSKNTLYLQMNSLRAEDTAVYYCAKGGKTGEFDYWGQGTLVTVSSGTGGSGGTGSGTGGSTDVVMTQSPATLSVSPGESATLFCRASESVYSNLAWYQHKPGRAPRLLIYGASTRATGIPARFDGTGSGTDFTLTISSLQSEDFAVYYCQQYNDWPITFGQGTRLEIKRAAA
B11: SC04-060 (scFv)
scFv: AMAQVQLVESGPGLVKASETLSLTCTVSDGSISSFYWSWIRQPPGKGLEWVGEIQDTGRTNYNPSLKSRVTISLDTSKNQFSLTLSSVTAADTAVYYCAREKEKYSDRSGYSYYYYYMDVWGKGTTVTVSSGTGGSGGTGSGTGGSTDIQMTQSPSSLSASVGDRVTITCRASQGISTYLNWYQQKPGKAPNLLIYGASNLQSGVPSRFSGSESGTDFTLTISSLQPEDFATYYCQQSFTTPRTFGQGTKLEIKRAAA
B12: SC04-031 (scFv)
scFv: AMAEVQLVESGGGVVQPGRSLRLSCAASGFTFSSYGMHWVRQAPGKGLEWVAVISYDGSNKYYADSVKGRFTISRDNSKNTLYLQMNSLRAEDTAVYYCAKGSVLGDAFDIWGQGTMVTVSSGTGGSGGTGSGTGGSTDIQMTQSPSFVSASVGDRVTITCRASQGISSWLAWYQQKPGKAPKLLIYAASSLQSGVPSRFSGSGSGTDFTLTISSLQPEDFATYYCQQANSFPLTFGGGTKVEIKRAAA
B13: SC04-038 (scFv)
scFv: AMAQVQLVQSGGGVVQPGRSLRLSCAASGFTFSSYGMHWVRQAPGKGLEWVAVISYDGSSKYYADSVKGRFTISRDNSKNTLYLQMNSLRAEDTAVYYCAKGSVLGDAFDIWGQGTMVTVSSGTGGSGGTGSGTGGSTDIQLTQSPSSVSASVGDRVTITCRASQGISGWLAWYQQKPEKAPKLLIYAASSLQRGVPSRFSGSGSGTDFTLTISSLQPEDFATYYCQQANSFPPTFGQGTRLEIKRAAA
B14: SC04-104 (scFv)
scFv: AMAQVQLQESGGGVVQPGRSLRLSCAASGFTFSSYGMHWVRQAPGKGLEWVATISYDGNVKDYADSVKGRFTISRDNSKNTLYLQMNSLRTEDTAVYYCAKIVVVTALDAFDIWGQGTMVTVSSGTGGSGGTGSGTGGSTDIQLTQSPSTLSASVGDRVTITCRASQILGHWLPLSWYQQKPGKAPKLLISKASSLESGVPPRFSGSGSGSDFTLTISSLQPDDFATYYCLQYHEYPLTFGGGTKLEIKRAAA
B15: SC04-098 (scFv)
scFv: AMAEVQLVQSGGGAVQPGRSLRLSCAASGFTFSSYGMHWVRQAPGKGLEWVAVILYDGSDKFYADSVKGRFTISRDNSKNTLYLQMNSLRAEDTAVYYCAKVAVAGTHFDYWGQGTLVTVSSGTGGSGGTGSGTGGSTDIQMTQSPSSLSASVGDRVTITCRASQGIRNDLGWYQQKPGKAPKLLIYAASSLQSGVPSRFSGSGSGTDFTLTISSLQPEDFATYYCQQLNSYPPTFGGGTKVEIKRAAA
B16: CR04-098 (antibody, V domains shown)
VH: QVQLVESGGGAVQPGRSLRLSCAASGFTFSSYGMHWVRQAPGKGLEWVAVILYDGSDKFYADSVKGRFTISRDNSKNTLYLQMNSLRAEDTAVYYCAKVAVAGTHFDYWGQGTLVTVSS
VL: DIQMTQSPSSLSASVGDRVTITCRASQGIRNDLGWYQQKPGKAPKLLIYAASSLQSGVPSRFSGSGSGTDFTLTISSLQPEDFATYYCQQLNSYPPTFGGGTKVEIKT
B17: SC04-103 (scFv)
scFv: AMAQVQLQESGGGVVQPGRSLRLSCAASGFTFSSYGMHWVRQAPGKGLEWVAVILYDGSDKYYADSVKGRFTISRDNSKNTLYLQMNSLRAEDTAVYYCAKVAVAGESFDSWGRGTLVTVSSGTGGSGGTGSGTGGSTDIQLTQSPSSVSASVGDRVTITCRASQGISSWLAWYQQKPGKAPRSLIYDASSLQSGVPSRFSGSGSGTDFTLTISSLQPEDFATYYCQQADSFPITFGQGTRLEIKRAAA

What was measured:
[1] = biological target: 5% FBS preparation; assay: phage ELISA on coated 5% FBS, anti-M13-HRP
[2] = biological target: T1, glycoprotein of rabies virus strain …; assay: cell-based or functional assay
[3] = biological target: T2, rabies virus glycoprotein (G protein) …; assay: cell-based or functional assay

Row | Binder | OD 492 nm [1] [OD 492 nm] | 50% endpoint dilution [2] [dilution] | Neutralizing potency (modified RFFIT) [3] [IU/mg]
1 | B1 | 0.057 | 135 | 
2 | B2 | 0.052 | 810 | 
3 | B3 | 0.053 | 45 | 
4 | B4 | 0.051 | 10 | 
5 | B5 | 0.054 | 810 | 
6 | B6 | 0.052 | 135 | 
7 | B7 | 0.054 | 405 | 
8 | B8 | 0.049 | 405 | 
9 | B9 | 0.056 | 30 | 
10 | B10 | 0.057 | 405 | 
11 | B11 | 0.056 | 30 | 
12 | B12 | 0.065 | 90 | 
13 | B13 | 0.061 | 270 | 
14 | B14 | 0.063 | 135 | 
15 | B15 | 0.06 | 1220 | 
16 | B16 |  |  | 7320
17 | B17 | 0.059 | 45 | 
